Assay [1] has as its system Tom70-Hsp90 interaction. In kind it is binding, human.
Assay [2] has as its system Tom70:Orf9b complex. In kind it is binding, human Tom70; SARS-CoV-2 Orf9b. As to conditions: pH 7.

For “Orf9b: SARS-CoV-2 Orf9b (residues 1–97), co-expressed with Tom70”, in assay [1], the “inhibitory effect exceeds that of the Orf9bHelix” value was determined as 2.4 fold. For the same substance, the “reduction of Hsp90 binding affinity compared to binding to free Tom70” value in assay [1] (pH 8) was found to be 7.3 fold. In assay [2], the “association rate of Hsp90 to Tom70 in presence of Orf9b (in words)” value was “significantly reduced” and the “change in koff of Hsp90-Tom70 by Orf9b” value amounted to 3 fold.

The record behind these values is doi:10.1101/2025.11.18.689095, “Molecular mechanism by which SARS-CoV-2 Orf9b suppresses the Tom70-Hsp90 interaction to evade innate immunity” (bioRxiv, 2025).
